Results deposited as PubChem BioAssay AID504761 (Drosophila RNAi Screening Center, 2011).

Purpose: 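Genome-wide fly cell screen for genes dengue virus requires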 (primary screen)
Cell system: D.Mel-2 cells from Drosophila
Knock-down reagent: long dsRNA against Drosophila genes
Conditions: infection with dengue virus type 2; dose and infection time not stated
Measurement: 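Per well on two replicate plates, imaging gave the percent of cells positive for viral envelope protein, ranked by infection, and a nuclear count of cells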
Direction: infection score: higher = more virus-infected cells; cell count: higher = more cells in the well
Active means: 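Very low infection ranking in both replicate wells (chance probability at most 0.065), then a retest showing infection dropped 1.5-fold or more at p below 0.05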
Calls: active = confirmed: knock-down lowers infection; inactive = not picked or not confirmed
The screen tested about 22,000 reagents; shown is an unselected part of those with a known target gene and a result. Over the whole deposit, 116 (0.52%) are marked active. 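Calls depend on retest data that are not deposited; infection was ranked per plate without normalising between plates; the unit of the infection score is not given.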 Raw values are not corrected between plates. Names joined by + are all predicted targets of the reagent. Not given: the amount of reagent, the time to read-out.

predicted target | dsRNA | infection score, replicate 1 | infection score, replicate 2 | cell count, replicate 1 | cell count, replicate 2 | Call
ADD1 (ADD domain-containing protein 1) | DRSC07135 | 19.7 | 18.4 | 1576 | 5909 | inactive
ADD1 (ADD domain-containing protein 1) | DRSC26133 | 12 | 8.36 | 5008 | 5753 | inactive
CG33272 | DRSC09116 | 2.36 | 3.1 | 4911 | 5222 | inactive
CG13102 | DRSC02202 | 5.2 | 0.21 | 6792 | 482 | inactive
rin (rasputin) | DRSC22997 | 2.32 | 17.5 | 4145 | 4270 | inactive
boil (boilerman) | DRSC17872 | 4.27 | 7.78 | 5805 | 6366 | inactive
Lcp65Aa | DRSC11209 | 3.22 | 18.5 | 6274 | 5634 | inactive
Lcp65Aa | DRSC27546 | 2.59 | 17.9 | 6917 | 6902 | inactive
D2hgdh (D-2-hydroxyglutaric acid dehydrogenase) | DRSC18577 | 7.68 | 8.16 | 6305 | 662 | inactive
D2hgdh (D-2-hydroxyglutaric acid dehydrogenase) | DRSC25824 | 2.4 | 9.79 | 6744 | 4844 | inactive
pain (painless) | DRSC04273 | 6.35 | 12.2 | 6519 | 5862 | inactive
pain (painless) | DRSC28351 | 12.1 | 1.99 | 6352 | 1054 | inactive
Bin1 (Bicoid interacting protein 1) | DRSC16843 | 6.85 | 13.9 | 6454 | 1019 | inactive
CG9826 | DRSC04570 | 8.75 | 8.5 | 6444 | 6954 | inactive
kl-3 (retired record) | DRSC20730 | 1.44 | 0.47 | 6095 | 5900 | inactive
kl-3 (retired record) | DRSC20891 | 1.45 | 0.36 | 6333 | 6099 | inactive
kl-3 (retired record) | DRSC20934 | 1.14 | 6.74 | 6483 | 5892 | inactive
LKRSDH (Lysine ketoglutarate reductase/saccharopine dehydrogenase) | DRSC03015 | 2.58 | 18.1 | 6115 | 5854 | inactive
LKRSDH (Lysine ketoglutarate reductase/saccharopine dehydrogenase) | DRSC24572 | 9.94 | 7.88 | 6411 | 6041 | inactive
Camta (Calmodulin-binding transcription activator) | DRSC07272 | 29.7 | – | 5188 | – | inactive
Camta (Calmodulin-binding transcription activator) | DRSC23081 | 1.72 | 13.6 | 5882 | 6059 | inactive
Camta (Calmodulin-binding transcription activator) | DRSC23156 | 2.02 | 4.16 | 7037 | 6806 | inactive
Camta (Calmodulin-binding transcription activator) | DRSC26757 | 3.73 | 0.73 | 6356 | 6151 | inactive
Camta (Calmodulin-binding transcription activator) | DRSC27929 | 27.4 | 17.8 | 5245 | 5497 | inactive
CG4042 | DRSC11751 | 7.04 | 26.4 | 6092 | 5793 | inactive
CG4042 | DRSC29114 | 7.4 | – | 5052 | 234 | inactive
CG33003 | DRSC22419 | 1.54 | 1.94 | 6100 | 6965 | inactive
CG33003 | DRSC26346 | 8.28 | 19.4 | 6049 | 5659 | inactive
ogre (optic ganglion reduced) | DRSC18809 | 2.87 | 14.8 | 6476 | 6325 | inactive
ogre (optic ganglion reduced) | DRSC24730 | 16.9 | 2.45 | 5965 | 6420 | inactive
Es2 | DRSC18663 | 1.96 | 0.25 | 6569 | 7180 | inactive
Es2 | DRSC27829 | 16.4 | 20.1 | 5912 | 6669 | inactive
CG13144 | DRSC02241 | 1.53 | 3.32 | 6260 | 6532 | inactive
CG32202 | DRSC09989 | 2.58 | 8.17 | 6621 | 6548 | inactive
Lcp65Ae | DRSC11212 | 3.63 | 4.83 | 6400 | 5713 | inactive
CG13077 | DRSC02181 | 10.7 | 16.5 | 5506 | 3975 | inactive
Gr33a (Gustatory receptor 33a) | DRSC02589 | 3.49 | 1.03 | 6730 | 6514 | inactive
CG10151 | DRSC05974 | 17.5 | 14 | 6096 | 6387 | inactive
CG10151 | DRSC27429 | 8.39 | 7.98 | 6869 | 6478 | inactive
CG14322 | DRSC14801 | 1.8 | 1.18 | 6233 | 6511 | inactive
tctn + B9d2 | DRSC03160 | 4.03 | 15.4 | 6256 | 3617 | inactive
Galk (Galactokinase) | DRSC10500 | 7.47 | 9.04 | 4981 | 3397 | inactive
Galk (Galactokinase) | DRSC26987 | 10.5 | 6.49 | 6432 | 6437 | inactive
mthl4 (methuselah-like 4) | DRSC06998 | 26 | 11 | 3955 | 3552 | inactive
Dnaaf5 (Dynein axonemal assembly factor 5) | DRSC13032 | 8.03 | 4.94 | 5905 | 5872 | inactive
PH4alphaPV (prolyl-4-hydroxylase-alpha PV) | DRSC22400 | 1.2 | 2.27 | 6067 | 6507 | inactive
PH4alphaPV (prolyl-4-hydroxylase-alpha PV) | DRSC28020 | 23.5 | 27.7 | 4518 | 5409 | inactive
lncRNA:CR32553 (long non-coding RNA:CR32553) | DRSC19229 | 3.6 | 3.09 | 6473 | 6480 | inactive
Kdm2 (Lysine demethylase 2) | DRSC14286 | 7.6 | 11.1 | 5958 | 6331 | inactive
snf (sans fille) | DRSC18835 | 5.25 | 9.36 | 4192 | 4464 | inactive
snf (sans fille) | DRSC27854 | 9.03 | 8.14 | 6083 | 5948 | inactive
RanBP3 (Ran binding protein 3) | DRSC23153 | 1.62 | 2.81 | 6592 | 6723 | inactive
RanBP3 (Ran binding protein 3) | DRSC27585 | 2.68 | 8.04 | 6574 | 6516 | inactive
CG16753 | DRSC08489 | 16 | 12.2 | 5512 | 2844 | inactive
Mabi (Mabiki) | DRSC02489 | 4.92 | 12.9 | 6462 | 6651 | inactive
Mabi (Mabiki) | DRSC29933 | 9.93 | 4.56 | 5611 | 5239 | inactive
Or30a (Odorant receptor 30a) | DRSC03385 | 1.6 | 3.57 | 6636 | 5764 | inactive
xmas-1 (retired record) | DRSC20386 | 4.33 | 14.4 | 6183 | 6034 | inactive
xmas-1 (retired record) | DRSC24501 | 15.9 | 1.64 | 6229 | 6290 | inactive

5 entries from above, reformatted.
| predicted target | dsRNA | infection score, replicate 1 | infection score, replicate 2 | cell count, replicate 1 | cell count, replicate 2 | Call |
| --- | --- | --- | --- | --- | --- | --- |
| Galk (Galactokinase) | DRSC10500 | 7.47 | 9.04 | 4981 | 3397 | inactive |
| Galk (Galactokinase) | DRSC26987 | 10.5 | 6.49 | 6432 | 6437 | inactive |
| mthl4 (methuselah-like 4) | DRSC06998 | 26 | 11 | 3955 | 3552 | inactive |
| Dnaaf5 (Dynein axonemal assembly factor 5) | DRSC13032 | 8.03 | 4.94 | 5905 | 5872 | inactive |
| PH4alphaPV (prolyl-4-hydroxylase-alpha PV) | DRSC22400 | 1.2 | 2.27 | 6067 | 6507 | inactive |
